Measurements taken from PMC11539229 (Antimicrobial Agents and Chemotherapy, 2024).

System: M. tuberculosis H37Rv
Test: High-dose aerosol mouse infection model, drug combinations
Type: in vivo, BALB/c mice
Details: experiment 1; bedaquiline alone for 8 weeks

Structure (SMILES): COc1nc2ccc(Br)cc2cc1[C@@H](c1ccccc1)[C@@](O)(CCN(C)C)c1cccc2ccccc12
- emergence of bedaquiline resistance: two of the four mice
